Results of unrelated studies side by side (data: NIAID ChemDB).

Shared fields: growth or infection tests; organism: Candida albicans; measure: zone

Conditions beyond the fields shown may differ between rows. Zone: diameter of growth inhibition. An empty or dashed field is not shown.

smiles | dose | strain or isolate | value
COc1ccc(-c2nn(-c3ccccc3)cc2C2CC(c3ccc(Cl)cc3Cl)=NN2c2ccccc2)cc1 | 1000 µg/mL | MTCC 227 | 0 mm
Nc1nc2nc(-c3ccccn3)c(-c3ccccn3)nc2c(=O)[nH]1 | 250 mg/mL | - | 35 mm
C#Cc1c(-c2ccccc2)c(C#N)c2nc(=O)c3c(-c4ccccc4)csc3n2c1N | 1000 µg/mL | - | 2 mm
Cn1cc(CCCNC(=O)CCc2cn(C)c3ccc(Cl)cc23)c2cc(Cl)ccc21 | 25 µg/mL | - | <10 mm
Nc1nc(COC(=O)c2ccccc2)cs1 | 25 µg/mL | - | <10 mm
O=C(CCc1c[nH]c2ccc(Cl)cc12)NCCCc1c[nH]c2ccc(OC(F)(F)F)cc12 | 25 µg/mL | - | <10 mm
CC(=O)c1ccc(-c2nnc(-c3sc4ccccc4c3Cl)o2)cc1 | 5 µg/disc | - | 11 mm
COc1ccc(/C=C/c2nc3ccc([N+](=O)[O-])cc3[nH]2)c(OC)c1OC | 25 µg/mL | - | 11.04 mm
CC(=O)N1N=C(c2sc3ccccc3c2Cl)OC1c1ccc(Cl)cc1 | 5 µg/disc | - | 11 mm
Cc1c(Br)cccc1-c1nnc(CN2CCC(n3nc4ccccc4n3)CC2)o1 | 300 µg/mL | - | 2.09 mm
Nc1nc(COC(=O)C2(c3ccc(Cl)cc3)CC2)cs1 | 25 µg/mL | - | <10 mm
Cc1ccc(O)c(O)c1O | 200 µg/mL | - | 16 mm
N#Cc1cccc(C(=O)OCc2csc(N)n2)n1 | 25 µg/mL | - | <10 mm
Cc1ccc(-c2nnc(CN3CCC(n4nc5ccccc5n4)CC3)o2)cc1Br | 300 µg/mL | - | 3.23 mm
Clc1ccccc1-c1nnc(-c2sc3ccccc3c2Cl)o1 | 5 µg/disc | - | 10 mm
Nc1nc(COC(=O)c2ccccc2[N+](=O)[O-])cs1 | 25 µg/mL | - | <10 mm
Clc1ccc(C2=NN(c3ccccc3)C(c3cn(-c4ccccc4)nc3-c3ccccc3)C2)c(Cl)c1 | 1000 µg/mL | MTCC 227 | 0 mm
O=c1[nH]c(=S)[nH]c2nc(-c3ccccn3)c(-c3ccccn3)nc12 | 250 mg/mL | - | 16 mm
O=C1CSC(c2ccccc2)N1c1nnc2c(n1)[nH]c1ccccc12 | 1000 µg/mL | ATCC 2091 | 21 mm
COc1cccc(-c2nnc(CN3CCC(n4nc5ccccc5n4)CC3)o2)c1 | 1200 µg/mL | - | 17.25 mm
Cn1cc(CCC(=O)NCc2cn(C)c3ccc(Cl)cc23)c2cc(Cl)ccc21 | 25 µg/mL | - | <10 mm
O=C1NC(=O)C(Cc2nc3ccccc3s2)S1 | 20000 µg/mL | - | 11 mm
OC(Cn1cncn1)(Cn1cncn1)c1ccc(F)cc1F | 25 µg/mL | - | 13.38 mm
CC1(C)CC(=O)c2cc(C3=CC(c4ccc(Cl)cc4)=CC3c3nnc4c(n3)Nc3ccccc3N4)[nH]c2C1 | 1000 µg/mL | ATCC 2091 | 24 mm
Fc1ccc(-c2nnc(-c3sc4ccccc4c3Cl)o2)cc1 | 5 µg/disc | - | 12 mm
O=[N+]([O-])c1ccc2nc(/C=C/c3ccc(O)cc3)[nH]c2c1 | 25 µg/mL | - | 10.04 mm
CSc1ccc(C2=NN(c3ccccc3)C(c3cn(-c4ccccc4)nc3-c3ccc(Cl)cc3)C2)cc1 | 1000 µg/mL | MTCC 227 | 3 mm
CC(=O)N1N=C(c2sc3ccccc3c2Cl)OC1c1cccc([N+](=O)[O-])c1 | 5 µg/disc | - | 10 mm
CC1(C)CC(=O)c2cc(/C=C/C(=O)c3ccc(Cl)cc3)[nH]c2C1 | 1000 µg/mL | ATCC 2091 | 24 mm
CC(=O)c1cc(-c2nnc(-c3sc4ccccc4c3Cl)o2)ccc1O | 5 µg/disc | - | 10 mm
CSc1ccc(C2=NN(c3ccccc3)C(c3cn(-c4ccccc4)nc3-c3ccc(Br)cc3)C2)cc1 | 1000 µg/mL | MTCC 227 | 4 mm
O=C(CC1SC(=O)NC1=O)Nc1ccccc1C(=O)O | 20000 µg/mL | - | 9 mm
CC(C)C[C@@H]1NC(=O)CNC(=O)[C@@H]2CCCN2C(=O)[C@H](CC(N)=O)NC(=O)[C@H](C)NC(=O)[C@H](Cc2ccc(O)cc2)NC(=O)[C@H]2CCCC2C1=O | 6 µg/mL | - | 15 mm
COc1ccc(C2OC(c3sc4ccccc4c3Cl)=NN2C(C)=O)cc1 | 5 µg/disc | - | 10 mm
c1ccc(-c2nnc(CN3CCC(n4nc5ccccc5n4)CC3)o2)cc1 | 1200 µg/mL | - | 24.21 mm
Cn1c(=S)[nH]c2nc(-c3ccccn3)c(-c3ccccn3)nc2c1=O | 250 mg/mL | - | 0 mm
O=C1NC(=O)C(Cc2nc3ccccc3[nH]2)S1 | 20000 µg/mL | - | <7 mm
Nc1[nH]c(=O)nc2nc(-c3ccccn3)c(-c3ccccn3)nc12 | 250 mg/mL | - | 25 mm
CC(=O)N1N=C(c2sc3ccccc3c2Cl)OC1c1ccccc1Cl | 5 µg/disc | - | 10 mm

The first 5 rows once more:

smiles	dose	strain or isolate	value
COc1ccc(-c2nn(-c3ccccc3)cc2C2CC(c3ccc(Cl)cc3Cl)=NN2c2ccccc2)cc1	1000 µg/mL	MTCC 227	0 mm
Nc1nc2nc(-c3ccccn3)c(-c3ccccn3)nc2c(=O)[nH]1	250 mg/mL	-	35 mm
C#Cc1c(-c2ccccc2)c(C#N)c2nc(=O)c3c(-c4ccccc4)csc3n2c1N	1000 µg/mL	-	2 mm
Cn1cc(CCCNC(=O)CCc2cn(C)c3ccc(Cl)cc23)c2cc(Cl)ccc21	25 µg/mL	-	<10 mm
Nc1nc(COC(=O)c2ccccc2)cs1	25 µg/mL	-	<10 mm